Square brackets hold non-standard residues; d marks the D form. Peptide text beside a SMILES is read from it. d1Nal = N[C@H](Cc1cccc2ccccc12)C(=O)O; dNle = CCCC[C@@H](N)C(=O)O

This series in a line: Lipid-peptide interaction by synchrotron SAXS. To be noted: SAXS fit parameter; for Zpeptide: peptide position in bilayer; for Bilayer thickness: liposomes alone 38.5±0.5. The source says:
For preparation of unilamellar lipid vesicles, synthetic DMPC (1,2-dimyristoyl-sn-glycero-3-phosphocholine), DMPG (1,2-dimyristoyl-sn-glycero-3-phospho-(10-rac-glycerol)), and DMPE-PEG (1,2-dimyristoyl-sn-glycero-3-phosphoethanolamine-N-[methoxy(polyethylene glycol)-2000]) (from Avanti Polar Lipids) were used in the molar ratio 9:7.5:2.5. The lipids were first dissolved in a 1:3 methanol:chloroform solution, and then the organic solvents were removed completely under vacuum using a Heidolph rotary evaporator with a Vacuubrand vacuum pump. The resulting lipid film was hydrated with 50 mM Tris buffer, pH 7.4, for at least one hour at 35 °C. After sonication for 10 min, the lipid dispersions were extruded through a 100 nm pore diameter polycarbonate filter (21 times) using an Avanti mini-extruder fitted with two 1 mL airtight syringes. Immediately before the SAXS experiment, a peptide solution with the adequate concentration for the target lipid:peptide ratio was mixed 1:1 with the lipid solution (1:1) using a micropipette.
SAXS experiments of the peptide-lipid mixes were performed at the automated BM29 bioSAXS beamline at the European Synchrotron Radiation Facility (ESRF) in Grenoble, France. The data was obtained using an energy of 12.5 keV and a detector distance of 2.87 m, covering a q range of about 0.0047 Å^−1 to 0.5 Å^−1. The data set was calibrated to an absolute intensity scale using water as a primary standard. 40 µL samples were run through a capillary using the flow mode of the automated sample changer. SAXS data was collected in ten successive frames of 0.5 s each to monitor radiation damage and the data reduction was done using the standard tool at BM29 [37].
The SAXS results of the lipid-peptide mixes were analysed using the theoretical model described in detail in [29]. In short, the model provides a detailed description of the membrane by dividing into probability functions for each component (lipid sub-units/peptide) across the bilayer.

Where [1] appears, read: fraction peptide 1:10 (peptide 5: joint SAXS/SANS fit).

In the case of `CCCC[C@@H](NC(=O)[C@@H](CCCCN)NC(=O)[C@@H](Cc1cccc2ccccc12)NC(=O)[C@@H](C)NC(=O)[C@@H](Cc1ccccc1)NC(=O)[C@@H](Cc1cccc2ccccc12)NC(=O)[C@@H](CCCCN)NC(=O)[C@H](N)CCCCN)C(N)=O` [Compound 5, kk(1-nal)fa(1-nal)k(nle)-NH2] (H-[dK][dK][d1Nal][dF][dA][d1Nal][dK][dNle]-NH2), the Zpeptide is 16 Å (fraction peptide 1:5), 17 Å under setting [1] and 17 Å (fraction peptide 1:20).
`CCCC[C@@H](NC(=O)[C@@H](CCCCN)NC(=O)[C@@H](Cc1cccc2ccccc12)NC(=O)[C@@H](CCCCN)NC(=O)[C@@H](Cc1ccccc1)NC(=O)[C@@H](Cc1cccc2ccccc12)NC(=O)[C@@H](CCCCN)NC(=O)[C@H](N)CCCCN)C(N)=O` [Compound D2D, kk(1-nal)fk(1-nal)k(nle)-NH2] (H-[dK][dK][d1Nal][dF][dK][d1Nal][dK][dNle]-NH2): the Bilayer thickness reads like this: (fraction peptide 1:5) 38.5±0.5 Å; under setting [1], 38.5±0.5 Å; (fraction peptide 1:20) 38.5±0.5 Å. The compound also displayed a Zpeptide (fraction peptide 1:5) of 14 Å, a Zpeptide under setting [1] of 12 Å and a Zpeptide (fraction peptide 1:20) of 11 Å.
